Data on one molecule can be found in publication PMC9486567, “Structural basis for the dual catalytic activity of the Legionella pneumophila ovarian tumor (OTU) domain deubiquitinase LotA” (The Journal of Biological Chemistry, 2022).

The target in this assay is 6×His tag-labeled ubiquitin (UniProt P0CG48 1-76). The settings on record: both partners purified.

B1: LotA_(1-542) (domain or fragment)
chain: MAKTIKATGDGACLFNAVSIGLSVEILSGRLDSQLDTPGYQALLDEFAKHHPQFNPKSWKTLKEWLAYYNDTRDIELILAPVLFNLNQKYQDHLDEEILNELTNLVWKNKANIENGQAWFQLQNTGDLGEALFPKLENLDLKKDRAPLLDKLREILKDYKLELTRENVKQFLTEKAKELLSALKKKISSDPHAFQRGYSCDELKGMTDALAISLVENREEDITDNRIKIRLENQEEHWNVLCNEEDSERFLDSTPSRLKMTSLEAYRGDKQVSAPTSEQLDLIEEPGVFLRERTIDNPGLGNCAFYAFAIGLVNIIQEEAKYNRRTMFDRWVGLDRSISGQYDEILKLNLEDPDKELLDRLQSSLRIVTYQYQIRELRNVCVFRNGNYNRLTGNSNFVNFAALYYGDPLDTDSRFNPFADSVPILIKMANIDRDSVHPGHENDVLVPLFLDLLYGDTTNPADITLETEPKSDSPIITAMNNITQDFFWGTHLDLNYLAEAFEVNLHVLRNNSPIQEFVDIPERHTLTLTNSNNTHWTTQITT
The term Kd denotes the free concentration of one partner at which half of the binding sites on the other are occupied at equilibrium, for simple one-to-one binding. B1: the Kd came to 3000 nM.
